Biological target: T1, EGFR (Homo sapiens, UniProt P00533)
T1 construct: endogenous in cells; host or cells: NCM460 (nontransformed human colonic epithelial cells); HT29 (colonic adenocarcinoma cells)
Assay: Western blot of EGFR phosphorylation in colonocytes exposed to C. difficile toxin
Assay type: cell-based
Settings: NCM460 cells; AG1478 0.2-1.0 uM for 30 minutes, then TxB 20 nM 60 minutes
Protocol: NCM460 or HT29 cells were seeded in 12 well plates and grown to 70%-100% confluency. Cells were serum starved overnight prior to experiments. TxB or TxA were added in serum free medium at the indicated concentrations for varying lengths of time. Cells were then washed three times with ice cold phosphate buffered saline (PBS) and lysed in 1×SDS sample buffer (Cell Signaling Technology, Beverly, Mass.). Equal amounts of cell lysates were loaded onto 10% SDS-PAGE gels and transferred to nitrocellulose membranes (Bio-Rad Laboratories, Hercules, Calif.). Blots were probed with each primary antibody overnight at 4° C. and then with species-specific secondary antibodies coupled with horseradish peroxidase for 1 hour at room temperature. Peroxidase activity was detected by SuperSignal Chemiluminescent Substrate (Pierce, Rockford, Ill.). Signals were analyzed and quantified as described (Na, X. et al., EMBO J., 22:4249-4259 (2003)) and results were expressed as mean ±SD.

COc1cc2ncnc(Nc3cccc(Cl)c3)c2cc1OC [AG1478, tyrphostin AG1478]
Activation of EGFR by TxB: completely blocked
